According to patent US20230241178A1 (SUN PHARMACEUTICAL INDUSTRIES LIMITED, priority 2020, published 2023):

Experiments:
[1] = general procedure: Fmoc solid-phase peptide synthesis; Fmoc-Rink amide resin; DIPC/HOBt; settings: whole synthesis
[2] = general procedure: Fmoc solid-phase peptide synthesis; Wang resin; DIPC/HOBt; settings: whole synthesis, Method B2

Substance: Tyr D-Ser(OMe) Glu Gly Thr Phe Thr Ser Asp Tyr Ser Ile Aib Leu Asp Lys Ile Ala Gln Lys Ala Phe Val Gln Trp Leu Ile Ala Gly Gly Pro Ser Ser Gly Ala Pro Pro Pro Ser-NH2
- final HPLC purity ([1]; Method B2): 91.96%

Substance: Tyr Aib Glu Gly Thr Phe Thr Ser Asp Tyr Ser Ile Tyr Leu Glu Lys Ile Ala Ala Gln Glu Phe Val Asn Trp Leu Leu Ala Gly Gly Pro Ser Ser Gly Ala Pro Pro Pro Ser Lys-NH2
- final HPLC purity ([1]; Method B5): 95.8%

Substance: Tyr Aib Glu Gly Thr Phe Thr Ser Asp Tyr Ser Ile Ser(OMe) Leu Glu Lys Ile Ala Ala Gln Glu Phe Val Asn Trp Leu Leu Ala Gly Gly Pro Ser Ser Gly Ala Pro Pro Pro Ser Lys-NH2
- final HPLC purity ([1]; Method B4): 94%

Substance: Tyr Aib Glu Gly Thr Phe Thr Ser Asp Tyr Ser Ile Aib Leu Asp Lys Ile Ala Gln Lys Ala Phe Val Gln Trp Leu Ile Ala Gly Gly Pro Ser Ser Gly Ala Pro Pro Pro Ser Arg
- final HPLC purity ([2]; run 1): 98.22%
- final HPLC purity ([2]; run 2): 97.2%
- final HPLC purity ([2]; run 3): 97.5%

Substance: Tyr Ser(OMe) Glu Gly Thr Phe Thr Ser Asp Tyr Ser Ile Aib Leu Asp Lys Ile Ala Gln Lys Ala Phe Val Gln Trp Leu Ile Ala Gly Gly Pro Ser Ser Gly Ala Pro Pro Pro Ser-NH2
- final HPLC purity ([1]; Method B2): 95.52%

Substance: Tyr Aib Glu Gly Thr Phe Thr Ser Asp Tyr Ser Ile D-Ser-(OMe) Leu Asp Lys Ile Ala Gln Lys Ala Phe Val Gln Trp Leu Ile Ala Gly Gly Pro Ser Ser Gly Ala Pro Pro Pro Ser-NH2
- final HPLC purity ([1]; Method B2): 94.74%
